Laboratory results published in publication PMC6100073, “Activation of Anthracene Endoperoxides in Leishmania and Impairment of Mitochondrial Functions” (Molecules : A Journal of Synthetic Chemistry and Natural …, 2018).

assay: EPR spin trapping (DMPO): activation of AcEPs by Fe2+; conditions: 500 µM compound (200 µM AQ), 500 µM FeSO4, 40 mM DMPO, H2O, 5 min, 25 °C

Q: For `O=C1c2ccccc2C(=O)c2ccccc21` [AQ, anthraquinone, reference compound], which “DMPO spin adduct formation on reaction with Fe^2+ (EPR)” value (shortened to “DMPO spin adduct formation on reaction”) is on record?
A: did not show EPR signals of spin adducts

Q: For `c1ccc2cc3ccccc3cc2c1` [Ac, anthracene], which “DMPO spin adduct formation on reaction” value is on record?
A: did not show EPR signals of spin adducts

Q: Which “DMPO spin adduct formation on reaction” value does the source give for `c1ccc2c(c1)C1OOC2c2ccccc21` [AcEP1117, 9,10-dihydro-9,10-epidioxidoanthracene] here?
A: did not result in detectable DMPO adducts

Q: For `CC12OOC(C)(c3ccccc31)c1ccccc12` [AcEP1118, 9,10-dimethyl-9,10-dihydro-9,10-epidioxidoanthracene], which “DMPO spin adduct formation on reaction” value is on record?
A: showed six-line EPR spectra

Q: With `CC12OOC(c3ccccc31)c1ccccc12` [AcEP1129, 9-methyl-9,10-dihydro-9,10-epidioxidoanthracene] as the molecule, how does the “DMPO spin adduct formation on reaction” value read?
A: showed six-line EPR spectra

Q: Which “DMPO spin adduct formation on reaction” value does the source give for `CCc1ccc2c(c1)C1OOC2c2ccccc21` (stereo not drawn) [AcEP1130, 2-ethyl-9,10-dihydro-9,10-epidioxidoanthracene] here?
A: did not result in detectable DMPO adducts
